Anti-infective test results gathered from many reports (values: NIAID ChemDB through PubChem).

All rows: cytotoxicity tests; cells: C8166; read by: MTT; endpoint: CC50

CCn: concentration that lowers growth or viability of the cells by n%. Conditions beyond the fields shown may differ between rows.

structure	result
CCc1c(Cc2ccccc2)nc(SCC(=O)c2ccco2)[nH]c1=O	>564 µM
CC(=O)O[C@@]12[C@H](OC(=O)/C=C/c3ccccc3)[C@@H](C)[C@@]3(O)[C@@H](C=C(CO)C[C@]4(O)C(=O)C(C)=C[C@@H]34)[C@@H]1C2(C)C	75.1 µM
CC/C(=N\NC(=O)c1ccccc1)c1cn(S(=O)(=O)c2ccccc2)c2ccccc12	>200 µg/mL
COc1cc(C(CO)C(O)c2cc(OC)c(O)c(OC)c2)ccc1O	>200 µg/mL
CCCCCCCC(=O)O[C@@H]1[C@@H](C)[C@@]2(O)[C@@H](C=C(CO)C[C@]3(O)C(=O)C(C)=C[C@@H]23)[C@@H]2C(C)(C)[C@]12OC(=O)CCCCCCC	22.7 µM
Cc1c(Cc2cccc3ccccc23)nc(Sc2cccs2)[nH]c1=O	88.3 µM
CC(=O)Oc1ccc(Cl)c2c1C(=O)c1ccccc1C2=O	>133 µg/mL
CCc1c(Cc2ccccc2)nc(SCC(=O)c2cccs2)[nH]c1=O	95.7 µM
CC(C)(C)NC(=O)[C@@H]1CN(Cc2cccnc2)CCN1C[C@@H](O)C[C@@H](Cc1ccccc1)C(=O)N[C@H]1c2ccccc2C[C@H]1O	>100 µM
CCc1c(-c2ccc3c(c2)OCO3)nc(SCc2cc(-c3ccc(C)cc3)n[nH]2)[nH]c1=O	102 µM
O=Cc1cn(S(=O)(=O)c2ccc(Cl)cc2)c2ccccc12	308 µM
CCc1c(Cc2cccc3ccccc23)nc(SCC(=O)c2ccc(OC)cc2)[nH]c1=O	>450 µM
CCc1cc(-c2ccc(C)o2)n(-c2ccc3c(c2)nc(-c2cc(C(=O)O)ccc2O)n3Cc2ccc(=O)[nH]c2)n1	>46 µM
CCc1c(Cc2cccc3ccccc23)nc(SCC(=O)c2ccccc2)[nH]c1=O	>482 µM
COc1cc(C(=O)C(C)c2ccc(O)c(OC)c2)ccc1O	>200 µg/mL
CC(=O)NCCCc1cccnc1CN(C)Cc1nc2ccccc2[nH]1	>10 µM
C=C(C)[C@@]1(OC(=O)c2ccccc2)[C@H](OC(C)=O)[C@@H]2[C@H](OC(C)=O)[C@@]3(C)O[C@@]4([C@@H]3OC(C)=O)[C@@H](OC(C)=O)[C@@H](C)C[C@H]4[C@@]2(O)[C@H](C)[C@@H]1OC(C)=O	117 µg/mL
CN(Cc1nc2ccccc2[nH]1)C1CCCc2cccnc21	10 µM
COc1ccc(/C=C/C(=O)O[C@@]23[C@H](O)[C@@H](C)[C@@]4(O)[C@@H](C=C(CO)C[C@]5(O)C(=O)C(C)=C[C@@H]45)[C@@H]2C3(C)C)cc1OC(C)=O	92.23 µM
COc1cc([C@H]2c3cc(O)c(OC)cc3C[C@@H](COC(C)=O)[C@@H]2COC(C)=O)ccc1O	>200 µg/mL
C/C(=N\NC(=O)c1ccccc1)c1cn(S(=O)(=O)c2ccc(Cl)cc2)c2ccccc12	>200 µg/mL
Cc1ccc2c(C=O)cn(S(=O)(=O)c3ccc(Cl)cc3)c2c1	77.02 µM
CCc1cc(-c2ccc(C)o2)n(-c2ccc3c(c2)nc(-c2cc(C(=O)O)ccc2O)n3Cc2ccc(OC)c(O)c2)n1	>46 µM
C[C@@H](C(=O)O)[C@@H]1CC[C@]2(C)[C@@H]3CC[C@H]([C@](C)(O)CO)[C@]4(CCC(=O)O4)C[C@@H]3CC[C@@]12C	>200 µg/mL
CC(=O)OCC1=C[C@H]2[C@@H]3C(C)(C)[C@]3(OC(C)=O)[C@H](OC(=O)CCCCn3ccc(=O)n(CCCCC(=O)O[C@@H]4[C@@H](C)[C@@]5(O)[C@@H](C=C(COC(C)=O)C[C@]6(O)C(=O)C(C)=C[C@@H]56)[C@@H]5C(C)(C)[C@]45OC(C)=O)c3=O)[C@@H](C)[C@]2(O)[C@@H]2C=C(C)C(=O)[C@@]2(O)C1	>200 µM
O=C1c2ccccc2C(=O)c2c(OS(=O)(=O)c3ccccc3)ccc(Cl)c21	>200 µg/mL
CC1=C[C@H]2[C@@]3(O)[C@H](C)[C@@H](OC(=O)/C=C/c4ccc(F)cc4)[C@]4(OC(=O)CCCCCBr)[C@H]([C@@H]3C=C(CO)C[C@]2(O)C1=O)C4(C)C	48.1 µM
N#Cc1ccc2c(c1)cc1n2-c2ccccc2NC1c1ccc([N+](=O)[O-])cc1	>200 µg/mL
Cc1ccc2c(C=O)c[nH]c2c1	261 µM
Cc1cccc2c1cc1n2-c2ccccc2NC1c1ccccc1	112 µg/mL
CC/C=C\C/C=C\C/C=C\C/C=C\C/C=C\CCCC(=O)O[C@@H]1[C@@H](C)[C@@]2(O)[C@@H](C=C(COC(C)=O)C[C@]3(O)C(=O)C(C)=C[C@@H]23)[C@@H]2C(C)(C)[C@]12O	33.91 µM
CC(=O)CCCCCCCCCCCCC[C@@H]1OC(=O)[C@@H](C)[C@@H]1C(=O)O	>200 µM
C=C(C)[C@@]12OC3(C)O[C@@H]1[C@@H]1[C@H](OC(=O)c4ccccc4)C4(C)O[C@@]5([C@@H]4OC(C)=O)[C@@H](OC(=O)c4ccccc4)[C@@H](C)C[C@H]5[C@@]1(O)[C@H](C)[C@@H]2O3	>200 µg/mL
CC(C)c1c(Cc2ccccc2)nc(SCC(=O)c2ccccc2)[nH]c1=O	>528 µM
Oc1ccc(C2Nc3ccccc3-n3c2cc2ccccc23)cc1	81.19 µg/mL
C=C(C)[C@]1(O)C[C@@H](C)[C@@]2(O)[C@H]([C@H]1OC(=O)/C=C/C=C/CCCCC)[C@@H]1O[C@]1(CO)[C@@H](O)[C@]1(O)C(=O)C(C)=C[C@H]12	109 µM
CCc1cc(-c2ccc(C)o2)n(-c2ccc3c(c2)nc(-c2cc(F)ccc2O)n3Cc2ccc(=O)[nH]c2)n1	>16 µM
CCCCCC(O)/C=C/C=C\CCCCCC[C@@H]1C(=O)O[C@@](O)(CO)[C@H]1O	>200 µM
COc1cccnc1CN(CCCCN)Cc1nc2nccc(N3CCN(C)CC3)c2[nH]1	>10 µM
O=[N+]([O-])c1ccc(C2Nc3ccccc3-n3c2cc2ccccc23)cc1	131 µg/mL
Cc1ccc2c(C=O)cn(S(=O)(=O)c3cccc([N+](=O)[O-])c3)c2c1	410 µM
COc1ccc(S(=O)(=O)n2cc(/C=N/NC(=O)c3ccccc3)c3ccc(C)cc32)cc1	74.86 µg/mL
COc1cc([C@H]2OC[C@H]3[C@@H]2CO[C@@H]3c2cc(OC)c(O)c(OC)c2)cc(OC)c1O	>200 µg/mL
CCc1c(Cc2cccc3ccccc23)nc(SCCc2ccccc2)[nH]c1=O	321 µM
NCCCCN(Cc1nc2ccccc2[nH]1)C1CCCc2cccnc21	>10 µM
CCc1cc(-c2ccc(C)o2)n(-c2ccc3c(c2)nc(-c2ccccc2O)n3Cc2ccc(=O)[nH]c2)n1	>26 µM
CS(=O)(=O)Oc1ccc(Cl)c2c1C(=O)c1ccccc1C2=O	>200 µg/mL
C=C(C)[C@@H]1CC[C@]2(CO)CC[C@]3(C)[C@H](CC[C@@H]4[C@@]5(C)CC[C@H](O)C(C)(C)[C@@H]5CC[C@]43C)[C@@H]12	316 µM
CN1CCN(c2ccnc3nc(CN(CCCCN)Cc4ncccc4-n4ccc5ccccc54)[nH]c23)CC1	>10 µM
CCCCCCCCCCCC[C@@H]1OC(=O)[C@@H](C)[C@@H]1C(=O)O	>200 µM
CC1(C)C=C2[C@H]3CC[C@@H]4[C@@]5(C)CCC(=O)C(C)(C)[C@@H]5CC[C@@]4(C)[C@]3(C)CC[C@@]2(C(=O)O)CC1	61.61 µM
CCc1cc(-c2ccc(C)o2)n(-c2ccc3c(c2)nc(-c2cc(C(=O)N(C)C)ccc2O)n3Cc2ccc(OC)c(O)c2)n1	16 µM
Cc1ccc(S(=O)(=O)n2cc(/C=N/NC(=O)c3ccccc3)c3cc(C#N)ccc32)cc1	124 µg/mL
O=Cc1cn(S(=O)(=O)c2cccc([N+](=O)[O-])c2)c2ccccc12	305 µM
CN(Cc1ccccn1)Cc1nc2ccccc2n1C(=O)OC(C)(C)C	>10 µM
COCCCn1c(=O)nc(-c2ccc(N3CCN(C)CC3)nc2)c2oc3ccc(-c4cnn(C)c4)cc3c21	>15 µM
Cc1ccc(S(=O)(=O)n2cc(C=O)c3ccccc32)cc1	98.15 µM
Cc1cccc2c1cc1n2-c2ccccc2NC1c1ccccc1O	90.81 µg/mL
CC(C)c1c(Cc2cccc3ccccc23)nc(SCC(=O)c2ccccc2)[nH]c1=O	>467 µM
C=C(C)[C@@H]1CC[C@]2(C(=O)O)CC[C@]3(C)[C@H](CC[C@@H]4[C@@]5(C)CCC(=O)C(C)(C)[C@@H]5CC[C@]43C)[C@@H]12	30.66 µM